Assay results published in patent US20230120677.

Target: Clover-SNAP-25-mRuby2 FRET sensor (UniProt P60880)

## IALC (inactive BoNT/A-LC, E224Q and Y366F)
  fluorescence intensity ratio between Clover and mRuby2, co-expression in E. coli: 1.9
